Protein sequences, listed by entry. Tags and fused reporters are not part of them. Lines headed by an entry give the natural chain unless they say otherwise; changes in a name come on top.
UniProt Q81ZH5: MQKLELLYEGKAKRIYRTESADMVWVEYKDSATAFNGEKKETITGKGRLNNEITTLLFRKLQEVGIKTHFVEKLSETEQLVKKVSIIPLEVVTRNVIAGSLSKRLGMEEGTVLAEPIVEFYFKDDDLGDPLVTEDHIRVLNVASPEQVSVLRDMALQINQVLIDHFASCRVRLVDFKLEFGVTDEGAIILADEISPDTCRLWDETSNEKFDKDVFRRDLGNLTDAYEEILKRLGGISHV

According to patent US9675592B2, “Methods and compositions for bacteria infections” (priority 2013, dated 2017):

Biological target: PurC (unrelated protein, control) (Bacillus anthracis, UniProt Q81ZH5)
Type: binding
Settings: read-out: KD PurC (control)

Question: `Cc1cc2c(C(C)C)c(O)c(O)c(C=O)c2c(O)c1-c1c(C)cc2c(C(C)C)c(O)c(O)c(C=O)c2c1O` [Gos, Gossypol, reference compound] was tested. Which Kd did it give?
Answer: Its Kd is > 100 µM.
